Data source: PubChem BioAssay AID1224833 (University of Georgia, 2016)

- Assay: 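Human genes whose knock-down alters rotavirus replication in monkey cells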 (primary screen)
- System: monkey MA104 kidney cells
- Reagent: siRNA pool against human genes, 50 nM
- Duration: 48 h knock-down before infection; read 24 h after infection
- Treatment: infection with rotavirus strain RV3 two days after transfection; infectious dose for this stage not given
- Measurement: 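Rotavirus antigen per well by fluorescent immunoassay, normalised to non-targeting control wells on each plate and given as a standard z-score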
- Direction: z-score vs non-targeting control: higher = more rotavirus replication than with non-targeting control
- Active means: In these data the active calls have z-score vs non-targeting control at about -1 or lower, or at about 1 or higher
- Meaning of the calls: active = z-score beyond 1 either way; inactive = z-score within 1 of zero
Here is a random part of about 12,000 reagents tested. Over the whole deposit, about 5,600 (46%) are marked active. 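Active calls cover z-scores past 1 in both directions, so they include lowered as well as raised rotavirus replication.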 A number with no mark means an inactive call.

With CLDN18 [SID329578968], how do the results read?
z-score vs non-targeting control: 0.9

What is on record for TCEAL8 [SID329581974]?
z-score vs non-targeting control: 1.15 (active)

With SRSF11 [SID329576521], how do the results read?
z-score vs non-targeting control: 1.32 (active)

With HMX2 [SID329573990], what does the deposit list?
z-score vs non-targeting control: -0.0417

For FCRL1 [SID329582264], what does the deposit list?
z-score vs non-targeting control: -0.0534

How did the screen score H2BW1 [SID329583169]?
z-score vs non-targeting control: 0.524

With ARF5 [SID329572807], what does the deposit list?
z-score vs non-targeting control: -1.16 (active)

Which result is listed for ATP5MC1 [SID329572867]?
z-score vs non-targeting control: -0.616

Which result is listed for SCGB3A2 [SID329582339]?
z-score vs non-targeting control: 0.795

What did the screen give for TM4SF1 [SID329574351]?
z-score vs non-targeting control: -0.995

Which result is listed for HTATSF1 [SID329578582]?
z-score vs non-targeting control: 0.799

How did the screen score SCARB1 [SID329573074]?
z-score vs non-targeting control: -2.98 (active)

For NDUFB10 [SID329574578], what was measured?
z-score vs non-targeting control: -1.15 (active)

For RARG [SID329575074], how do the results read?
z-score vs non-targeting control: -0.587

For TUBGCP2 [SID329577385], what does the deposit list?
z-score vs non-targeting control: -0.881

For FOXRED1 [SID329579753], what does the deposit list?
z-score vs non-targeting control: 1.59 (active)

What did the screen give for CEP70 [SID329581212]?
z-score vs non-targeting control: -1.43 (active)

Which result is listed for RPL13 [SID329575160]?
z-score vs non-targeting control: -0.721

With ARHGAP17 [SID329579575], what was measured?
z-score vs non-targeting control: 0.402

What did the screen give for ELMO1 [SID329576829]?
z-score vs non-targeting control: 0.182

With DKK2 [SID329578499], how do the results read?
z-score vs non-targeting control: 0.199

With CD164 [SID329576278], how do the results read?
z-score vs non-targeting control: -1.94 (active)

What did the screen give for PLTP [SID329574871]?
z-score vs non-targeting control: -0.675

For FAM117B [SID329583030], what was measured?
z-score vs non-targeting control: -0.941

What did the screen give for PRMT6 [SID329579610]?
z-score vs non-targeting control: -0.868

For CBR3 [SID329573028], what was measured?
z-score vs non-targeting control: -1.28 (active)

How did the screen score DSCAM [SID329573454]?
z-score vs non-targeting control: -0.942

What did the screen give for HS6ST2 [SID329581928]?
z-score vs non-targeting control: -0.869

How did the screen score MYRIP [SID329578225]?
z-score vs non-targeting control: 0.0202

For CD19 [SID329573061], what does the deposit list?
z-score vs non-targeting control: -0.606

With ZSCAN10 [SID329581757], what does the deposit list?
z-score vs non-targeting control: 0.525

For SPMIP6 [SID329581702], what was measured?
z-score vs non-targeting control: 0.242

For KLHL31 [SID329584493], what does the deposit list?
z-score vs non-targeting control: 1.61 (active)

What is on record for CNOT1 [SID329577765]?
z-score vs non-targeting control: -0.466

For LAMTOR5 [SID329577227], what does the deposit list?
z-score vs non-targeting control: -0.22

Which result is listed for ANO5 [SID329583472]?
z-score vs non-targeting control: 0.0457

With MAGEA5P [SID329574371], how do the results read?
z-score vs non-targeting control: -1.69 (active)

With CYP17A1 [SID329573349], what was measured?
z-score vs non-targeting control: 0.698

Which result is listed for CA6 [SID329572984]?
z-score vs non-targeting control: 0.644

Which result is listed for RUNDC3B [SID329583108]?
z-score vs non-targeting control: 1.24 (active)

With INO80B [SID329581386], what does the deposit list?
z-score vs non-targeting control: -1.63 (active)

With PTCHD3 [SID329584221], what does the deposit list?
z-score vs non-targeting control: -1.55 (active)

With TMEM51 [SID329579562], what was measured?
z-score vs non-targeting control: -1.59 (active)

How did the screen score HLA-DQA1 [SID329573969]?
z-score vs non-targeting control: -1.09 (active)

With CNTLN [SID329579440], what was measured?
z-score vs non-targeting control: -0.457

With APOC3 [SID329572789], how do the results read?
z-score vs non-targeting control: 1.39 (active)

With SLC35F2 [SID329579368], what does the deposit list?
z-score vs non-targeting control: 0.727

In a second layout: entries from further up.
gene knocked down,PubChem SID,z-score vs non-targeting control
DSCAM,SID329573454,-0.942
HS6ST2,SID329581928,-0.869
MYRIP,SID329578225,0.0202
CD19,SID329573061,-0.606
